A mixed list of measured activities; the numbers were collected in NIAID ChemDB.

All rows: tests in culture; species: HIV-1; cell line: CEM + CEM-SS; measure: EC50

Blank or dashed fields: not listed here.

CC(C)O/N=C/c1cc(NC(=S)OC(C)C)ccc1Cl ; strain or isolate: RF ; method: cytopathic effect / XTT ; value: 0.013 µM
Cn1cc(NC(=O)Nc2cc(C(=O)Nc3cc(C(=O)Nc4cc(C(=O)Nc5ccc(P(=O)(O)O)c6cc(P(=O)(O)O)ccc56)n(C)c4)n(C)c3)n(C)c2)cc1C(=O)Nc1cc(C(=O)Nc2cc(C(=O)Nc3ccc(P(=O)(O)O)c4cc(P(=O)(O)O)ccc34)n(C)c2)n(C)c1 ; strain or isolate: RF ; method: cytopathic effect / XTT ; value: 1.4 µM
COc1cc(C)cc2c(-c3cccc([N+](=O)[O-])c3)cc(-c3cc(-c4cccc([N+](=O)[O-])c4)c4cc(C)cc(OC)c4c3O)c(O)c12 ; strain or isolate: RF ; method: cytopathic effect ; value: >100 µM
CC(C)OC(=S)Nc1ccc(Cl)c(/C=N/OC(C)(C)C)c1 ; strain or isolate: RF ; method: cytopathic effect / XTT ; value: 0.008 µM
CN(C)C1=C(C#N)/C(=C2/C(C#N)=C(N(C)C)N(c3ccc([N+](=O)[O-])cc3)c3c2n(C)c2ccccc32)c2c(c3ccccc3n2C)N1c1ccc([N+](=O)[O-])cc1 ; strain or isolate: 6S/AZT ; method: cytopathic effect / XTT ; value: 0.5–1.41 µM
NCCCCCCCCCCCCNC(=O)Cc1cn([C@H]2C=C[C@@H](CO)O2)c(=O)[nH]c1=O ; strain or isolate: IIIB ; method: cytopathic effect / MTT ; value: >100 µM
COc1cccc2c(-c3cccs3)cc(-c3cc(-c4cccs4)c4cccc(OC)c4c3O)c(O)c12 ; strain or isolate: RF ; method: cytopathic effect ; value: >100 µM
COc1cc(-c2ccc(N=Nc3ccc4c(S(=O)(=O)O)cc(S(=O)(=O)O)c(N)c4c3O)c(OC)c2)ccc1N=Nc1ccc2c(S(=O)(=O)O)cc(S(=O)(=O)O)c(N)c2c1O ; strain or isolate: IIIB ; method: cytopathic effect / XTT ; value: 0.6 µM
COc1cc(OC)c2c(O)c(-c3cc(-c4ccc(O)cc4O)c4cc(OC)cc(OC)c4c3O)cc(-c3ccc(O)cc3O)c2c1 ; strain or isolate: RF ; method: cytopathic effect ; value: >100 µM
Cc1occc1C(=S)Nc1ccc(Cl)c(C(=O)OC(C)C)c1 ; strain or isolate: NL4-3 ; changes: RT-K103N ; method: cytopathic effect / XTT ; value: 5.5 µM
C/C=C/CSc1cc(NC(=S)c2ccsc2C)ccc1Cl ; strain or isolate: NL4-3 ; changes: RT-K101E ; method: p24 ; value: 1 µM
CC(C)=CCOc1cc(NC(=S)c2ccsc2C)ccc1Cl ; strain or isolate: HEPT-resistant (RT P236L) ; changes: RT-P236L ; method: cytopathic effect / XTT ; value: 0.02 µM
c1ccc(SCc2nc3ccccc3o2)cc1 ; strain or isolate: RF ; method: cytopathic effect / XTT ; value: 35.3 µM
Cn1cc(NC(=O)Nc2cc(C(=O)Nc3cc(C(=O)Nc4cc(S(=O)(=O)O)c5cc(S(=O)(=O)O)cc(S(=O)(=O)O)c5c4)n(C)c3)n(C)c2)cc1C(=O)Nc1cc(C(=O)Nc2cc(S(=O)(=O)O)c3cc(S(=O)(=O)O)cc(S(=O)(=O)O)c3c2)n(C)c1 ; strain or isolate: A17 ; method: cytopathic effect / XTT ; value: 1 µM
CC1(C)OC(c2cnn(-c3ccccc3)n2)C(C(O)CN2CCCC2)O1 ; strain or isolate: RF ; method: cytopathic effect / MTS ; value: >100 µM
C=CCO/N=C/c1cc(NC(=S)c2ccoc2C)ccc1Cl ; strain or isolate: NL4-3 ; changes: RT-K101E ; method: cytopathic effect / XTT ; value: 0.9 µM
CCCc1cc(=O)oc2c3c(c4c(c12)OC(C)(C)CC4)O[C@@H](C)[C@H](C)[C@@H]3O ; strain or isolate: UC38-resistant (RT Y181C) ; changes: RT-Y181C ; method: XTT ; value: 0.1 µM
COc1cccc2c(-c3cccc(N)c3)cc(-c3cc(-c4cccc(N)c4)c4cccc(OC)c4c3O)c(O)c12 ; strain or isolate: RF ; method: cytopathic effect ; value: >100 µM
CC=CCOc1cc(NC(=S)c2ccoc2C)ccc1OC ; strain or isolate: RF ; method: cytopathic effect / XTT ; value: 0.045 µM
O=C(NCCc1ccccc1)C1=Cc2ccncc2CC1 ; strain or isolate: IIIB ; method: cytopathic effect / XTT ; value: >34 µM
COc1cc(C)cc2c(-c3ccc4c(c3)OCO4)cc(-c3cc(-c4ccc5c(c4)OCO5)c4cc(C)cc(OC)c4c3O)c(O)c12 ; strain or isolate: RF ; method: cytopathic effect ; value: >100 µM
Cc1ccnc(SC(F)(F)c2nc3ccccc3o2)n1 ; strain or isolate: CALO(RT-T139I) ; changes: RT-T139I ; method: cytopathic effect / XTT ; value: 0.43 µM
COc1cc(-c2ccc(N=Nc3ccc4c(S(=O)(=O)O)cc(S(=O)(=O)O)c(N)c4c3O)c(OC)c2)ccc1N=Nc1ccc2c(S(=O)(=O)O)cc(S(=O)(=O)O)c(N)c2c1O ; strain or isolate: G691-2 ; method: cytopathic effect / XTT ; value: 3.9 µM
CCCc1cc(=O)oc2c3c(c4c(c12)OC(C)(C)CC4)O[C@H](C)[C@@H](C)C3=O ; strain or isolate: SK1 ; method: cytopathic effect / XTT ; value: 0.17 µM
CC(C)=CCOc1cc(NC(=S)c2ccoc2C)ccc1Cl ; strain or isolate: UC10/costatolide-resistant (RT K103N) ; changes: RT-K103N ; method: cytopathic effect / XTT ; value: 0.9 µM
Cc1ccsc1C(=S)Nc1ccc(Cl)c(/C=N/OC(C)C)c1 ; strain or isolate: RF ; method: cytopathic effect / XTT ; value: 0.071 µM
CC(C)Oc1ccccc1CNC(=O)c1ccc2cnccc2n1 ; strain or isolate: RF ; method: cytopathic effect / XTT ; value: >31 µM
NCCCCCCCCNC(=O)Cc1cn([C@@H]2C=C[C@H](CO)O2)c(=O)[nH]c1=O ; strain or isolate: IIIB ; method: cytopathic effect / MTT ; value: >100 µM
CC1(C)OC(C(O)CN2CCCCC2)[C@H](c2cnn(-c3ccccc3)n2)O1 ; strain or isolate: RF ; method: cytopathic effect / MTS ; value: >100 µM
Cn1cc(NC(=O)Nc2cc(C(=O)Nc3cc(C(=O)Nc4ccc(P(=O)(O)O)c5cc(P(=O)(O)O)ccc45)n(C)c3)n(C)c2)cc1C(=O)Nc1cc(C(=O)Nc2ccc(P(=O)(O)O)c3cc(P(=O)(O)O)ccc23)n(C)c1 ; strain or isolate: G691-2 ; method: cytopathic effect / XTT ; value: 35 µM
CN1N=C(N)c2cn([C@@H]3O[C@H](COP(=O)(O)O)[C@@H](O)[C@H]3O)c3ncnc1c23 ; strain or isolate: SK1 ; method: cytopathic effect / XTT ; value: 0.19 µM
COc1ccccc1CNC(=O)C1=Cc2ccncc2CC1 ; strain or isolate: RF ; method: cytopathic effect / XTT ; value: >181 µM
Cn1cc(N)cc1C(=O)Nc1cc(C(=O)Nc2ccc3cc(S(=O)(=O)O)cc(S(=O)(=O)O)c3c2)n(C)n1 ; strain or isolate: RF ; method: cytopathic effect / XTT ; value: 19.5 µM
NCCCCCCNC(=O)Cc1cn([C@@H]2C=C[C@H](CO)O2)c(=O)[nH]c1=O ; strain or isolate: IIIB ; method: cytopathic effect / MTT ; value: >10 µM
COc1cc(OC)c2c(O)c(-c3cc(-c4cccc(N)c4)c4cc(OC)cc(OC)c4c3O)cc(-c3cccc(N)c3)c2c1 ; strain or isolate: RF ; method: cytopathic effect ; value: >100 µM
FC(F)(Sc1ncccn1)c1nc2ccccc2o1 ; strain or isolate: 4xAZT(RT-D67N K70R T215Y K219Q) ; changes: RT-D67N K70R T215Y K219Q ; method: cytopathic effect / XTT ; value: 0.373 µM
Cn1cc(NC(=O)Nc2cc(C(=O)Nc3cc(C(=O)Nc4cc(C(=O)Nc5cc(P(=O)(O)O)c6cccc(P(=O)(O)O)c6c5)n(C)c4)n(C)c3)n(C)c2)cc1C(=O)Nc1cc(C(=O)Nc2cc(C(=O)Nc3cc(P(=O)(O)O)c4cccc(P(=O)(O)O)c4c3)n(C)c2)n(C)c1 ; strain or isolate: RF ; method: cytopathic effect / XTT ; value: 0.3 µM
Cc1occc1C(=S)Nc1ccc(Cl)c(/C=N/OC(C)(C)C)c1 ; strain or isolate: 4XAZT/Y181C (RT D67N K70R Y181C T215Y K219Q) ; changes: RT-D67N K70R Y181C T215Y K219Q ; method: cytopathic effect / XTT ; value: 0.2 µM
NCCCCCCCCNC(=O)Cc1cn([C@H]2C=C[C@@H](CO)O2)c(=O)[nH]c1=O ; strain or isolate: LAI ; method: cytopathic effect / MTT ; value: >100 µM
CCC1CCCCN1CC(O)C1OC(C)(C)OC1c1cnn(-c2ccccc2)n1 ; strain or isolate: IIIB ; method: cytopathic effect / MTS ; value: >100 µM

3 of the rows above, restated:

smiles	strain or isolate	changes	method	value
COc1cc(OC)c2c(O)c(-c3cc(-c4cccc(N)c4)c4cc(OC)cc(OC)c4c3O)cc(-c3cccc(N)c3)c2c1	RF	-	cytopathic effect	>100 µM
CN(C)C1=C(C#N)/C(=C2/C(C#N)=C(N(C)C)N(c3ccc([N+](=O)[O-])cc3)c3c2n(C)c2ccccc32)c2c(c3ccccc3n2C)N1c1ccc([N+](=O)[O-])cc1	6S/AZT	-	cytopathic effect / XTT	0.5–1.41 µM
COc1cc(-c2ccc(N=Nc3ccc4c(S(=O)(=O)O)cc(S(=O)(=O)O)c(N)c4c3O)c(OC)c2)ccc1N=Nc1ccc2c(S(=O)(=O)O)cc(S(=O)(=O)O)c(N)c2c1O	IIIB	-	cytopathic effect / XTT	0.6 µM

Neighbouring rows are from separate reports. ECn: concentration that inhibits the pathogen or its effect by n%. Two numbers with a dash give a range or band.